In publication PMC6759604 (Frontiers in Microbiology, 2019):

Tested on: Nc1ncnc2c1ncn2[C@@H]1O[C@H](COP(=O)(O)OP(=O)(O)OP(=O)(O)O)[C@@H](O)[C@H]1O
Experiment: purified protein
Conditions: Mg2+ 4 mM, pH 8.0, room temperature, labelled compound as trace

Vp HqsK (VP1876 HK; H-NOX-associated quorum sensing kinase) (Vibrio parahaemolyticus RIMD 2210633; D499A)
Km: 35 µM
